US12145941B2, “Heterocyclic antiviral agents” (ENANTA PHARMACEUTICALS, INC., priority 2021, dated 2024)

Target: SARS-CoV-2 3CL-protease (Severe acute respiratory syndrome coronavirus 2 (2019-nCoV) (SARS-CoV-2), UniProt P0DTD1)
Experiment: SARS-CoV-2 3C-like (3CL) protease fluorescence assay (FRET)
Assay type: biochemical
Settings: recombinant SARS-CoV-2 3CL-protease 10 nM, 30 min preincubation at RT, TAMRA-SITSAVLQSGFRKMK-Dabcyl-OH substrate, run in duplicate
Method: SARS-CoV-2 3C-like (3CL) protease fluorescence assay (FRET): Recombinant SARS-CoV-2 3CL-protease was expressed and purified. TAMRA-SITSAVLQSGFRKMK-Dabcyl-OH peptide 3CLpro substrate was synthesized. Black, low volume, round-bottom, 384 well microplates were used. In a typical assay, 0.85 μL of test compound was dissolved in DMSO then incubated with SARS-CoV-2 3CL-protease (10 nM) in 10 μL assay buffer (50 mM HEPES [pH 7.5], 1 mM DTT, 0.01% BSA, 0.01% Triton-X 100) for 30 min at RT. Next, 10 μL of 3CL-protease substrate (40 μM) in assay buffer was added and the assays were monitored continuously for 1 h in an Envision multimode plate reader operating in fluorescence kinetics mode with excitation at 540 nm and emission at 580 nm at RT. No compound (DMSO only) and no enzyme controls were routinely included in each plate. All experiments were run in duplicate. Data Analysis: SARS-CoV-2 3CL-protease enzyme activity was measured as initial velocity of the linear phase (RFU/s) and normalized to controlled samples DMSO (100% activity) and no enzyme (0% activity) to determine percent residual activity at various concentrations of test compounds (0-10 μM). Data were fitted to normalized activity (variable slope) versus concentration fit in GraphPad Prism 7 to determine IC50. All experiments were run in duplicate, and IC50 ranges are reported as follows: A<0.1 μM; B 0.1-1 μM; C>1 μM.

Substance: (3R,5'S)-1′-((S)-4-methyl-2-(2-oxo-3-(1H-pyrazol-3-yl) yridine-1(2H)-yl)pentanoyl)-2-oxospiro[indoline-3,3′-pyrrolidine]-5′-carbonitrile [Compound 25-a]
- IC50: < 100 nM
